Experimental data: PubChem BioAssay AID624099 (ICCB-Longwood, 2012)
In all, the deposit lists about 21,000 reagents; below is an unselected part. Of all reagents, 497 (2.4%) were called active. 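Higher z means weaker E2 silencing; only reporter increases were scored, and knock-downs that hurt cell survival may mask genuine repressor factors.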 Unmarked entries are inactive. Reagent sequences are not shown.

Assay: 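Host factors E2 relies on to silence an HPV18 LCR reporter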 (primary screen)
Cells: human C33A cervical carcinoma cells (HPV-negative) stably expressing BPV1 E2 and an HPV18 LCR luciferase reporter
Reagent: siRNA pool against human genes, 40 nM
Time to read-out: 72 h
Detection: 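Per-well luciferase luminescence, z-scored on each plate against the plate mean and SD with control wells left out, then averaged across three replicate plates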
Direction: mean z-score and z-score: higher = stronger reporter signal, weaker E2 silencing
Rule for the call: 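Hit if mean z-score reaches 2 and two or more of three replicate z-scores also reach 2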

ZBTB12
- mean z-score: 0.94
- z-score, replicate A: 0.65
- z-score, replicate B: 1.02
- z-score, replicate C: 1.15

VCPKMT
- mean z-score: 0.05
- z-score, replicate A: -0.05
- z-score, replicate B: 0.13
- z-score, replicate C: 0.09

TCL1B
- mean z-score: 0.17
- z-score, replicate A: 0.19
- z-score, replicate B: 0
- z-score, replicate C: 0.31

MVP
- mean z-score: 1.05
- z-score, replicate A: 1.03
- z-score, replicate B: 0.82
- z-score, replicate C: 1.29

ARSI
- mean z-score: 0.18
- z-score, replicate A: -0.15
- z-score, replicate B: 0.19
- z-score, replicate C: 0.49

DPCD
- mean z-score: 1.07
- z-score, replicate A: 1.04
- z-score, replicate B: 1.08
- z-score, replicate C: 1.08

OR5D16
- mean z-score: 0.29
- z-score, replicate A: 0.03
- z-score, replicate B: 0.56
- z-score, replicate C: 0.27

Continued, starting with the last 2 of the part before.
DPCD
- mean z-score: 1.07
- z-score, replicate A: 1.04
- z-score, replicate B: 1.08
- z-score, replicate C: 1.08

OR5D16
- mean z-score: 0.29
- z-score, replicate A: 0.03
- z-score, replicate B: 0.56
- z-score, replicate C: 0.27

SCNN1G
- mean z-score: 0.66
- z-score, replicate A: 0.45
- z-score, replicate B: 0.97
- z-score, replicate C: 0.57

TMED7
- mean z-score: 0.13
- z-score, replicate A: 0.19
- z-score, replicate B: 0.05
- z-score, replicate C: 0.14

ALDH1B1
- mean z-score: -1.37
- z-score, replicate A: -1.48
- z-score, replicate B: -0.99
- z-score, replicate C: -1.63

GSTA1
- mean z-score: -1.77
- z-score, replicate A: -1.85
- z-score, replicate B: -1.67
- z-score, replicate C: -1.81

CYP20A1
- mean z-score: 1.3
- z-score, replicate A: 1.15
- z-score, replicate B: 1.5
- z-score, replicate C: 1.25
